Literature values as cited in article PMC13065029 (PLOS One, 2026).
Like-named read-outs stand apart in the source and are kept apart here.

What was measured:
CHIKV nsP2^pro [1] = target: T1, CHIKV nsP2^pro (Chikungunya virus, UniProt Q8JUX6); conditions: read-out: IC₅₀; FRET; ref [69]; cited from earlier work
CHIKV nsP2^pro [2] = target: T1, CHIKV nsP2^pro; conditions: fluorometry; ref [69]; cited from earlier work
CHIKV nsP2^pro [3] = target: T1, CHIKV nsP2^pro; conditions: cited from earlier work

Row | Structure (SMILES) | IC50 (CHIKV nsP2^pro [1]) [µM] | Kd (CHIKV nsP2^pro [2]) [µM] | Inhibition Mode (CHIKV nsP2^pro [3]; ref [69]) | Inhibition Mode (CHIKV nsP2^pro [3]; ref [60])
1 | Cc1nc2ccccc2n1CN1C(=O)C(=NNC(N)=S)c2ccccc21 | 32 | 6.1 | Competitive | –
2 | CCOc1ccccc1-c1cc(C(=O)NC/C=C/S(C)(=O)=O)[nH]n1 | – | – | – | Covalent (Cys- binding)
